Reference: US20120121633A1, “HIV CD4 BINDING SITE BASED COVALENT IMMUNOGEN COMPOSITIONS” (priority 2010, published 2012)

Target: soluble CD4 (sCD4) (Homo sapiens, UniProt P01730)
Test: sCD4 binding to immobilized electrophilic 421-433 CD4BS mimetics (ELISA)
Details: immobilized KLH-E-416-433; from FIG. 10A data; read-out: apparent dissociation constant for specific binding to soluble CD4 (sCD4)
Protocol: FIG. 10. […] KLH-E-VIP, an irrelevant electrophilic peptide described in ref 3.
FIG. 29. […] I19-21 IgA from patients with HIV infection for 19-21 years, 100 μg/mL. […] MAb YZ23 raised by immunization with E-120, 6 μg/mL.
E-421-433. […] KLH-E-VIP, an irrelevant electrophilic peptide described in ref 122. […] I19-21 IgA from patients with HIV infection for 19-21 years, 100 μg/mL.

Substance: KLH-E-416-433: E-416-433 peptide with phosphonate groups at Lys side chains, conjugated via N-terminal Cys to keyhole limpet hemocyanin (CLPSRIKQIINMWQEVGKA; left off: large carriers; small tags and cut ends)
- Kd: 182 nM
